Measured values from several laboratories, pooled; numbers as filed in NIAID ChemDB.

Common to all: growth or infection tests; organism: Mycobacterium tuberculosis

MIC bound comes from a single tested concentration.

SMILES | dose | read by | cell line | read-out | strain | conditions | value
CCOC(=O)/C=C/c1ccc(OC)cc1 | - | resazurin | - | MIC | BTB09-002 | - | 242 µM
CN1NC(=O)SC(=O)c2ccccc2C1=O | - | BACTEC | - | MIC | H37Rv | - | ≥12.5 µg/mL
Fc1cccc(CNCc2c[nH]c3ccccc23)c1 | - | - | - | MIC | H37Ra | - | 32 µg/mL
CC(=O)Oc1ccccc1C(=O)Nc1cnccn1 | - | resazurin | - | MIC | H37Rv | - | >100 µg/mL
CCCCCCCC/C(C)=N\NC(N)=O | - | - | - | MIC | H37Rv | - | 50 µg/mL
COc1cc2oc3c(c(=O)c2c(O)c1/C=C/C(C)C)C(C=C(C)C)Oc1cc(O)ccc1-3 | - | - | - | MIC | H37Rv | - | >12.5 µg/mL
Cc1ccc(C(=O)c2ccccc2C(=O)O)c(O)c1 | - | - | - | MIC | H37Rv | - | 25 µg/mL
Oc1ccc(Cl)c2cccnc12 | - | - | - | MIC90 | 20 isolates drug-resistant | - | 0.25 µg/mL
Clc1ccc(CNCCc2c[nH]c3ccccc23)cc1 | - | - | - | MIC | H37Ra | - | 32 µg/mL
CCCNC(=S)NCCC | - | - | - | MIC | H37Rv | - | >100 µg/mL
O=S(=O)(SC(=S)NCCNC(=S)SS(=O)(=O)c1ccc(Cl)cc1)c1ccc(Cl)cc1 | - | resazurin | - | MIC bound | H37Rv | - | >6.25 µg/mL
C=CC[n+]1c(C=Cc2coc3ccc(C)cc3c2=O)sc2ccccc21 | - | - | - | MIC | H37Rv | - | 250 µM
O=C(c1ccc(O)c(C(=O)O)c1)c1ccc(O)c(C(=O)O)c1 | - | BACTEC | - | MIC bound | H37Rv | - | >6.25 µg/mL
COc1ccc(/C=C/C(=O)c2c(O)cc(O[C@@H]3O[C@H](CO)[C@@H](O)[C@H](O)[C@H]3O[C@@H]3O[C@@H](C)[C@H](O)[C@@H](O)[C@H]3O)cc2O)cc1O | - | - | - | MIC90 | - | - | >128 µg/mL
NC(=O)c1cnccn1 | - | resazurin | - | MIC | H37Rv | - | 3.12 µg/mL
C=C(C)[C@@H]1CC[C@](C)(CCC#N)/C(=N/NC(N)=O)C1 | 6.25 µg/mL | resazurin | - | inhibition | H37Rv | - | 9%
O=c1oc2ccccc2cc1-c1cs/c(=N\N=C\c2cc([N+](=O)[O-])ccc2O)n1Cc1ccccc1 | 6.25 µg/mL | - | - | inhibition | H37Rv | - | <11%
Cc1cc(=O)n2[nH]c(Nc3ccc(Cl)cc3)c(C(=O)Nc3ccccc3)c2n1 | - | resazurin | - | MIC | H37Rv | - | 50 µg/mL
CC[C@H](CC[C@@H](C)[C@H]1CC[C@H]2[C@@H]3CC=C4C[C@@H](O)CC[C@]4(C)[C@H]3CC[C@]12C)C(C)C | - | agar | - | MIC | H37Rv | - | >350 µM
Clc1ccc(CNCc2c[nH]c3ccccc23)c(Cl)c1 | - | - | - | MIC | H37Ra | - | 32 µg/mL
COc1cccc([C@H](c2cc3cc(C#N)ccc3nc2OC)[C@@](O)(CCN(C)C)c2ccc(C)nc2)c1OC | - | luminescence | - | MIC90 | H37Rv | - | >5 µg/mL
CCCCCCCCCCCCOC(=O)c1cc(O)c(O)c(O)c1 | - | - | - | MIC90 | - | - | 64 µg/mL
COc1ccccc1/C=N/N=c1\scc(-c2cc3ccccc3oc2=O)n1Cc1ccccc1 | 6.25 µg/mL | - | - | inhibition | H37Rv | - | <11%
CCCCCCCCCCCCCCCCCC(=O)NN | - | - | - | MIC | H37Rv | - | >100 µg/mL
CCn1c(C)c(C(C[N+](=O)[O-])C[N+](=O)[O-])c2ccccc21 | - | - | - | MIC | H37Ra | - | >64 µg/mL
COCN1CCC2N(COC)CCC3N(COC)CCC1N23 | 128 µg/mL | BACTEC | - | inhibition | H37Rv | - | 100%
O=c1oc2ccccc2cc1-c1cs/c(=N\N=C\c2ccc(F)cc2)n1Cc1ccccc1 | - | - | - | MIC | H37Rv | - | >6.25 µg/mL
CN(Cc1c[nH]c2ccc(Br)cc12)Cc1c[nH]c2ccc(Br)cc12 | - | - | - | MIC | H37Ra | - | 16 µg/mL
COc1cc2c(c3oc(=O)c4c(c13)CCC4=O)C1C=COC1O2 | - | - | - | MIC50 | - | - | 32 µg/mL
O=C(O)c1cc(-c2ccccc2)nc2c1c(S(=O)(=O)O)cc1c(S(=O)(=O)O)cccc12 | - | - | - | MIC | H37Rv | - | >100 µg/mL
COc1ccc(/C=c2/sc3nc(-c4ccccc4)nn3c2=O)cc1 | - | BACTEC | - | MIC bound | H37Rv | - | >12.5 µg/mL
Oc1c(Cl)cc(Cl)cc1Sc1cc(Cl)cc(Cl)c1O | - | - | - | MIC90 | - | - | 128 µg/mL
O=[N+]([O-])c1nccn1CCCCNc1ccnc2cc(Cl)ccc12 | - | - | - | MBC | H37Rv | - | 4.9–9.8 µg/mL
CCN(CC)CCCC(C)Nc1ccnc2c1ccc1cccnc12 | - | - | - | MIC | H37Rv | - | >100 µg/mL
O=c1oc2ccc(Br)cc2cc1-c1cs/c(=N\N=C\c2cc([N+](=O)[O-])ccc2O)n1Cc1ccccc1 | 6.25 µg/mL | - | - | inhibition | H37Rv | - | 11%
CC(=O)OCC(=O)[C@H]1CC[C@H]2[C@@H]3CCC4=CC(=O)CC[C@]4(C)[C@H]3CC[C@]12C | - | - | - | MIC50 | - | - | 16 µg/mL
O=c1c(C=Cc2sc3ccccc3[n+]2Cc2ccc(F)cc2)coc2ccc(Cl)cc12 | - | - | - | MIC | H37Rv | - | 500 µM
COc1cc([N+](=O)[O-])c2ncccc2c1OC | - | - | - | MIC | H37Rv | - | >100 µg/mL
C[n+]1c(C=Cc2coc3ccccc3c2=O)sc2ccccc21 | - | - | - | MIC | H37Rv | - | 250 µM
CC1C(=O)OC2CC[N+]3(C(=O)C(F)(F)F)CC4OC4(COC(=O)C(C)(O)C1(C)O)C23.O=C([O-])C(F)(F)F | - | BACTEC | - | MIC bound | H37Rv | - | >12.5 µg/mL
Fc1ccc(CNCc2c[nH]c3ccccc23)cc1F | - | - | - | MIC | H37Ra | - | 32 µg/mL
CCCCCCCCCCCCCCCCCC(=O)O | - | agar | - | MIC | H37Rv | - | >350 µM
O=c1oc2ccc(Br)cc2cc1-c1cs/c(=N\N=C\c2ccc(Br)cc2)n1Cc1ccccc1 | - | - | - | MIC | H37Rv | - | >6.25 µg/mL
CCc1ccccn1 | - | - | - | MIC | H37Rv | - | >100 µg/mL
O=C(O)c1cnccn1 | 12.5 µg/mL | - | - | inhibition | H37Ra | - | 7%
Cn1cc(C(C[N+](=O)[O-])C[N+](=O)[O-])c2ccccc21 | - | - | - | MIC | H37Ra | - | >128 µg/mL
O=P(O)(c1ccccc1)c1ccccc1 | - | - | - | MIC | H37Rv | - | >100 µg/mL
CN1CCN=C1c1ccc(NC(=O)Nc2ccc(NC(=O)Nc3ccc(C4=NCCN4C)cc3)cc2)cc1.Cl.Cl | - | BACTEC | - | MIC | H37Rv | - | 32 µg/mL
CCCCCCCCCN1C(=O)c2cc(Cl)nnc2Oc2cc(C)ccc21 | - | BACTEC | - | EC50 | H37Rv | - | >12.5 µg/mL
O=C(O)c1cn(C2CC2)c2cc(N3CCNCC3)c(F)cc2c1=O | - | resazurin | - | MIC | H37Rv | - | 3.12 µg/mL
O=c1oc2ccc(Br)cc2cc1-c1cs/c(=N\N=C\c2ccc(Cl)c(Cl)c2)n1Cc1ccccc1 | - | - | - | MIC | H37Rv | - | >6.25 µg/mL
COC(=O)c1ccccc1S(=O)(=O)NC(=O)Nc1nc(C)cc(C)n1 | - | - | - | MIC | ATCC35801 | - | >3.6 µg/mL
COc1ccc(Nc2[nH]n3c(=O)cc(C)nc3c2C(=O)Nc2ccc(C)cc2C)cc1 | - | resazurin | - | MIC | H37Rv | - | 50 µg/mL
Cc1ccc2occ(C=Cc3sc4ccccc4[n+]3Cc3ccccc3)c(=O)c2c1 | - | - | - | MIC | H37Rv | - | 125 µM
Cc1ccc(NC(=O)c2c(Nc3ccc(Cl)cc3)[nH]n3c(=O)cc(C)nc23)cc1 | - | resazurin | - | MIC | H37Rv | - | 3.12 µg/mL
CCCCCCN1C(=O)c2ccnnc2Oc2cc(C)ccc21 | - | BACTEC | - | EC50 | H37Rv | - | >12.5 µg/mL
C/C=C/C1=CC(=O)C(O)C1O | 12.5 µg/mL | BACTEC | - | inhibition | H37Rv | - | 29%
COc1ccc2nc3cc(Cl)ccc3c(NCCCNc3ccnc(N)n3)c2c1 | - | - | - | MIC | H37Rv | - | 50 µg/mL
S=C(S)N1CCCC1 | - | - | - | MIC | TAC-R | - | 0.2 µg/mL
OC[C@H]1O[C@@H](O)C[C@@H](O)[C@@H]1O | - | agar | - | MIC | H37Rv | - | 341.5 µM
O=c1oc(-c2ccccc2)cn1-c1ccccc1 | 12.5 µg/mL | BACTEC | - | inhibition | H37Rv | - | 23%
O=C1c2cc(Cl)nnc2Oc2ccc(Cl)cc2N1CCCC1CCCCC1 | 12.5 µg/mL | BACTEC | - | inhibition | H37Rv | - | 51%
Cc1ccc(Nc2ccc(O)c3c2C(=O)c2c(O)ccc(Nc4ccc(C)cc4)c2C3=O)cc1 | - | - | - | MIC | H37Rv | - | 50 µg/mL
O=C1C2C(C(=O)N1CCN1CCOCC1)[C@H]1C=C[C@@H]2O1 | 12.5 µg/mL | BACTEC | - | inhibition | H37Rv | - | -6%
Fc1ccc(F)c(CNCc2c[nH]c3ccccc23)c1 | - | - | - | MIC | H37Ra | - | 64 µg/mL
Cc1ccc2occ(C=Cc3sc4ccccc4[n+]3C)c(=O)c2c1 | - | - | - | MIC | H37Rv | - | 125 µM
OCC1OC(/C(N=Nc2ccccc2)=N/Nc2ccccc2)C(O)C1O | - | BACTEC | - | MIC | H37Rv | - | ≥12.5 µg/mL
O=c1oc2ccccc2cc1-c1cs/c(=N\N=C\c2ccc(Br)cc2)n1Cc1ccccc1 | - | - | - | MIC | H37Rv | - | >6.25 µg/mL
Cc1ccc2occ(C=Cc3nc4ccccc4[nH]3)c(=O)c2c1 | - | - | - | MIC | H37Rv | - | 250 µM
O=C1c2ccccc2C(O)(c2ccccc2)C1C1C(=O)c2ccccc2C1(O)c1ccccc1 | - | - | - | MIC | H37Rv | - | >100 µg/mL
Cc1ccc(Nc2[nH]n3c(=O)cc(C)nc3c2C(=O)Nc2ccccc2)cc1 | - | resazurin | - | MIC | H37Rv | - | 100 µg/mL
O=C(c1ccccc1)c1ccccc1 | - | - | - | MIC | H37Rv | - | >100 µg/mL
OCC1OC(n2ccn([C@@H]3O[C@H](CO)[C@@H](O)[C@H]3O)c2=S)C(O)C1O | - | BACTEC | - | MIC bound | H37Rv | - | >12.5 µg/mL
O=C(O)CCc1c[nH]c2ccccc12 | - | - | - | MIC | H37Rv | - | 25 µg/mL
O=c1oc2ccc(Br)cc2cc1-c1cs/c(=N\N=C\c2cc(Br)ccc2O)n1Cc1ccccc1 | - | - | - | MIC | H37Rv | - | >6.25 µg/mL
COCC(O)CNCCN | - | - | - | MIC | H37Rv | - | >100 µg/mL
Oc1c(CN2CCCC2)cc(Nc2cc(/C=C/c3ccc(Cl)cc3)nc(/C=C/c3ccc(Cl)cc3)n2)cc1CN1CCCC1 | 6.25 µg/mL | resazurin | - | inhibition | H37Rv | - | 93%
NC[C@@H]1O[C@H](O[C@H]2[C@@H](O)[C@H](O[C@@H]3[C@@H](O)[C@H](N)C[C@H](N)[C@H]3O[C@H]3O[C@H](CO)[C@@H](O)[C@H](O)[C@H]3N)O[C@@H]2CO)[C@H](N)[C@@H](O)[C@@H]1O | - | - | - | MIC50 | - | - | 4 µg/mL
ON=C(C1CCCCC1)C1CCCCC1 | - | - | - | MIC | H37Rv | - | >100 µg/mL
O=C(CNC(=O)c1ccccc1)N/N=C/c1c[nH]c2ccccc12 | - | BACTEC | - | MIC bound | H37Rv | - | >12.5 µg/mL
CCCCCCCCN | - | - | - | MIC | H37Rv | - | 100 µg/mL
NC(CCC(=O)OCc1ccccc1)C(=O)NC(CCC(=O)OCc1ccccc1)C(=O)O | - | BACTEC | - | MIC bound | H37Rv | - | >12.5 µg/mL
CC1(C)CC(N=c2cc3n(-c4cc(Cl)c(Cl)c(Cl)c4)c4ccccc4nc-3cc2Nc2cc(Cl)c(Cl)c(Cl)c2)CC(C)(C)N1 | 0.005 µg/mL | - | Macrophages | inhibition | H37Rv | inside macrophages | 85%
COc1ccc([C@](O)(CCN(C)C)[C@@H](c2cc3cc(C#N)ccc3nc2OC)c2cccc(OC)c2OC)cn1 | - | fluorescence | - | MIC90 | H37Rv | - | 2.1 µg/mL
Nc1ccc(OCCCS(=O)(=O)CCO)cc1 | - | - | - | MIC | H37Rv | - | >100 µg/mL
COc1ccc(NC(=O)c2c(Nc3ccccc3)[nH]n3c(=O)cc(C)nc23)cc1 | - | resazurin | - | MIC | H37Rv | - | 50 µg/mL
CC1=CC(=O)C(C(C)C)=CC1=O | 128 µg/mL | BACTEC | - | inhibition | H37Rv | - | 100%
CCC(O)CC(C)O | - | - | - | MIC | H37Rv | - | >100 µg/mL
O=C1c2ccccc2N2OC3C4CCC(C4)C3C12c1ccccc1 | 6.25 µg/mL | resazurin | - | inhibition | H37Rv | - | 68%
O=C(O)c1c(Cl)cc(Cl)c(-c2c(Cl)cc(Cl)c(C(=O)O)c2Cl)c1Cl | - | - | - | MIC | H37Rv | - | >100 µg/mL

The first 9 rows once more:

SMILES,dose,read by,cell line,read-out,strain,conditions,value
CCOC(=O)/C=C/c1ccc(OC)cc1,-,resazurin,-,MIC,BTB09-002,-,242 µM
CN1NC(=O)SC(=O)c2ccccc2C1=O,-,BACTEC,-,MIC,H37Rv,-,≥12.5 µg/mL
Fc1cccc(CNCc2c[nH]c3ccccc23)c1,-,-,-,MIC,H37Ra,-,32 µg/mL
CC(=O)Oc1ccccc1C(=O)Nc1cnccn1,-,resazurin,-,MIC,H37Rv,-,>100 µg/mL
CCCCCCCC/C(C)=N\NC(N)=O,-,-,-,MIC,H37Rv,-,50 µg/mL
COc1cc2oc3c(c(=O)c2c(O)c1/C=C/C(C)C)C(C=C(C)C)Oc1cc(O)ccc1-3,-,-,-,MIC,H37Rv,-,>12.5 µg/mL
Cc1ccc(C(=O)c2ccccc2C(=O)O)c(O)c1,-,-,-,MIC,H37Rv,-,25 µg/mL
Oc1ccc(Cl)c2cccnc12,-,-,-,MIC90,20 isolates drug-resistant,-,0.25 µg/mL
Clc1ccc(CNCCc2c[nH]c3ccccc23)cc1,-,-,-,MIC,H37Ra,-,32 µg/mL

Neighbouring rows are from separate reports. Blank or dashed fields: not listed here. MIC50, MIC90 and the like: level of inhibition, or share of isolates inhibited. ECn: concentration that inhibits the pathogen or its effect by n%. Percent inhibition refers to the dose given; in toxicity tests it is the harm to the cells. a–b is a range or a potency band.